Reference: patent US20050256302A1, “Novel peptides having camp producing activity” (Japan Science and Technology Agency, priority 2002, published 2005)

Test: Concentration of CRSP in tissues by radioimmunoassay
Set-up: species or system pig
Conditions: mean ± standard error (n = 3)

## CSCC[C@H](NC(=O)[C@H](CCCCN)NC(=O)[C@@H](NC(=O)[C@@H]1CCCN1C(=O)[C@H](CC(C)C)NC(=O)[C@H](CC(C)C)NC(=O)[C@H](CC(N)=O)NC(=O)[C@H](CO)NC(=O)[C@H](CCCNC(=N)N)NC(=O)[C@@H](NC(=O)[C@H](CCSC)NC(=O)[C@H](CO)NC(=O)CNC(=O)[C@H](CO)NC(=O)[C@H](CCCNC(=N)N)NC(=O)[C@H](CO)NC(=O)[C@H](CC(C)C)NC(=O)[C@H](CC(C)C)NC(=O)CNC(=O)[C@@H](NC(=O)[C@H](CC(C)C)NC(=O)[C@H](CCCNC(=N)N)NC(=O)[C@H](Cc1c[nH]cn1)NC(=O)[C@@H](NC(=O)[C@H](CCSC)NC(=O)[C@@H]1CSSC[C@H](NC(=O)[C@@H](N)CO)C(=O)N[C@@H](CC(N)=O)C(=O)N[C@@H]([C@@H](C)O)C(=O)N[C@@H](C)C(=O)N[C@@H]([C@@H](C)O)C(=O)N1)[C@@H](C)O)C(C)C)C(C)C)[C@@H](C)O)C(=O)NCC(=O)N[C@@H](Cc1ccccc1)C(=O)N[C@@H](CCCCN)C(=O)N[C@H](C(=O)N[C@@H](Cc1ccccc1)C(=O)NCC(N)=O)C(C)C [CRSP] (H-SCNTATCMTHRLVGLLSRSGSMVRSNLLPTKMGFKVFG-NH2; disulfide 2-7)
Pig Liver
  Immunoactivity of CRSP: 0.13 ± 0.02 pmol/g tissue
Pig Lung
  Immunoactivity of CRSP: 0.11 ± 0.00 pmol/g tissue
Pig Midbrain
  Immunoactivity of CRSP: 7.5 ± 0.9 pmol/g tissue
Pig Olfactory bulb
  Immunoactivity of CRSP: 0.74 ± 0.22 pmol/g tissue
Pig Ovary
  Immunoactivity of CRSP: 0.18 ± 0.09 pmol/g tissue
Pig Pancreas
  Immunoactivity of CRSP: 0.066 ± 0.010 pmol/g tissue
Pig Pons/Medulla oblongata
  Immunoactivity of CRSP: 2.2 ± 0.3 pmol/g tissue
Pig Posterior pituitary
  Immunoactivity of CRSP: 96 ± 15 pmol/g tissue
Pig Small intestine
  Immunoactivity of CRSP: 0.072 ± 0.018 pmol/g tissue
Pig Spinal cord
  Immunoactivity of CRSP: 0.52 ± 0.06 pmol/g tissue
Pig Spleen
  Immunoactivity of CRSP: 0.11 ± 0.01 pmol/g tissue
Pig Stomach
  Immunoactivity of CRSP: 0.29 ± 0.00 pmol/g tissue
Pig Thalamus
  Immunoactivity of CRSP: 3.5 ± 0.4 pmol/g tissue

Where a SMILES comes first, the peptide text is derived from it. Bridges are numbered along the chain shown (N, C = ends).
